In patent US20210324051A1 (published 2021):

Target: T1, Ravn strain cleaved MARV GP ectodomain (Marburg virus, Ravn strain, UniProt Q1PDC7 19-648)
T1 chain: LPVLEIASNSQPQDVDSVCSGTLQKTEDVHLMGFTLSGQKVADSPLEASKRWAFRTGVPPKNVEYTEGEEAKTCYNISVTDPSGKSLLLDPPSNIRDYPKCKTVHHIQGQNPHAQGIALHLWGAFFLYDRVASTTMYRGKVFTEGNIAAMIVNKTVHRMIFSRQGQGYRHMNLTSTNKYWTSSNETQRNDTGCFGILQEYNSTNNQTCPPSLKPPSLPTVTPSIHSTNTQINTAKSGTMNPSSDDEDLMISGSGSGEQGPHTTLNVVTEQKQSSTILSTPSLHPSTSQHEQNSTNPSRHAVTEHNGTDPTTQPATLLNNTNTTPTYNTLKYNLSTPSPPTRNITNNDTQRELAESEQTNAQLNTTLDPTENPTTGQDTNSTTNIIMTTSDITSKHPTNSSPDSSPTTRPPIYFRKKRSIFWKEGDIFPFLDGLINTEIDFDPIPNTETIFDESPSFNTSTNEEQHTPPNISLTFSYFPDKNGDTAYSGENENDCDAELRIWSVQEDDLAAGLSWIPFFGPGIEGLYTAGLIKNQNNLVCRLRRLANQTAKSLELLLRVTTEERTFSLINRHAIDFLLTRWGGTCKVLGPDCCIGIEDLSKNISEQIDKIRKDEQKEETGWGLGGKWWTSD

B1: MR198 human monoclonal antibody (antibody)
chain 1: QVQLQESGPGLVKPSQTLSLSCTVSGGSISSDSYYWNWIRQHPGKGLEWIGYVYYSGSTNYNPSLKSRVIISLDTSKNQFSLKLNSVTAADTAVYYCARADYYGSGSFFYYYHMDVWGKG
chain 2: DIQMTQSPSTLSASVGDRVTITCRASQSIYTWLAWYQQKPGKAPKLLIHKSSSLESGVPSRFSGSGSGTEFTLTISSLQPDDFATYYCHQYYVYPCTSA
With B1 the EC50 was 0.8 µg/mL.
